From patent publication US4158052A, “Oil-free adjuvant compositions containing N-acetyl-muramyl-L-alanyl-D-isoglutamine” (priority 1975, dated 1979)

Test system: Hartley guinea pigs
Settings: guinea pig, in vivo

`CC(=O)N[C@@H]1[C@@H](O[C@H](C)C(=O)N[C@@H](C)C(=O)N[C@H](CCC(=O)O)C(N)=O)[C@H](O)[C@@H](CO)O[C@H]1O` [Mur-NAc-L-Ala-D-Glu-α-NH2, 2-(2-acetamido-2-deoxy-3-O-D-glucopyranosyl)-D-propionyl-L-alanyl-D-α-isoglutamine] was tested, and the “Skin test, diameter of reaction: Purified tuberculin 50 IU” value was 0,0,0,0,0,0.
